In paper PMC7534258, “Novel temporin L antimicrobial peptides: promoting self-assembling by lipidic tags to tackle superbugs” (Journal of Enzyme Inhibition and Medicinal Chemistry, 2020):

Tests used:
CD spectroscopy in SUVs [1] = conditions: 8 µM peptide, SUVs DOPG/DOPE/CL, phosphate buffer 5 mM
[2] = Thioflavin T peptide aggregation in LUVs; conditions: peptide 5–50 µM
CD spectroscopy in SUVs [3] = conditions: 8 µM peptide, SUVs DOPG/CL, phosphate buffer 5 mM
[4] = Membrane fluidity, Laurdan generalised polarisation; conditions: Gram negative mimicking membranes, 25 °C

Structure (SMILES): CCCCC(=O)Nc1ccc(C[C@H](N)C(=O)N[C@H](C(=O)N2CCC[C@H]2C(=O)N[C@@H](Cc2c[nH]c3ccccc23)C(=O)N[C@@H](Cc2ccccc2)C(=O)N[C@@H](CO)C(=O)N[C@@H](CCCCN)C(=O)N[C@@H](Cc2ccccc2)C(=O)N[C@H](CC(C)C)C(=O)N[C@H](CCCCN)C(=O)N[C@@H](CCCNC(=N)N)C(=O)N[C@H](C(=O)N[C@@H](CC(C)C)C(N)=O)[C@@H](C)CC)C(C)C)cc1 [C, H-Phe(4-NHCO(CH2)3CH3)-Val-Pro-Trp-Phe-Ser-Lys-Phe-DLeu-DLys-Arg-Ile- Leu-NH2] (H-[Phe(4-NH2)](Pentanoyl)VPWFSKF[dL][dK]RIL-NH2)
- θ222/θ208 Gram-negative mimicking membranes (CD spectroscopy in SUVs [1]): 1.2
- ThT aggregation in membrane (in words) [2]: drastic increase of fluorescence
- θ222/θ208 Gram-positive mimicking membranes (CD spectroscopy in SUVs [3]): 1.2
- generalised polarisation (GP) LUVs + 5 µM Compound [4]: 0.07
- generalised polarisation (GP) LUVs + 30 µM Compound [4]: 0.15

Where a SMILES comes first, the peptide text is derived from it. [ ]: non-standard residue; d: D form. The star is where a group is joined. Phe(4-NH2) = Nc1ccc(C[C@H](N)C(=O)O)cc1; Pentanoyl = CCCCC(=O)*
